Pooled drug test results. Numbers come from NIAID ChemDB, via PubChem.

All rows: whole-cell or culture tests

An empty or dashed field is not shown.

SMILES | organism | measure | read by | tested at | cell line | strain or isolate | changes | setting | value
CCCN1CCN(c2cc(=O)c3nc4c(oc3c2)c2c(=O)c3c(O)c(C)c5c(c34)=C(O)[C@@](C)(O/C=C/[C@H](OC)[C@@H](C)[C@@H](OC(C)=O)[C@H](C)[C@H](O)[C@H](C)[C@@H](O)[C@@H](C)/C=C/C=C(/C)C(=O)N2)O5)CC1 | Staphylococcus aureus | MIC90 | - | - | - | 20 strains (methicillin-susceptible) | - | - | 0.0078 µg/mL
Cc1cn([C@H]2C[C@H](N=[N+]=[N-])[C@@H](CO)O2)c(=O)[nH]c1=O | HIV-1 | EC50 | luciferase | - | HeLa | NRTI resistant | RT-M41L E44D D67N T69D V118I L210W T215Y | - | 6.38 µM
NC(=O)c1ncn([C@@H]2O[C@H](CO)[C@@H](O)[C@H]2O)n1 | Pichinde virus | EC50 | plaque count | - | VERO 76 | - | - | - | 1–3.2 µg/mL
CC[C@@]1(O)C(=O)OCc2c1cc1n(c2=O)Cc2cc3c(N)c4c(cc3nc2-1)OCO4 | Trypanosoma brucei | EC50 | - | - | - | - | - | - | 0.074 µM
Cc1cn([C@H]2C[C@H](N=[N+]=[N-])[C@@H](CO)O2)c(=O)[nH]c1=O | SHIV | EC50 | p24 / ELISA | - | Macrophage | - | - | - | 0.08 µM
Nc1ncnc2c1ncn2[C@@H]1O[C@H](CO)[C@@H](O)[C@@H]1O | Duck hepatitis B virus | EC50 | antigen | - | Primary duck hepatocytes | - | - | - | 15 µg/mL
COc1cc(C=O)cc(OC)c1 | Aspergillus terreus | MIC | agar | - | - | UAB680 | - | - | 1000 µM
CCN1CCN(C(=O)N[C@@H](C(=O)N[C@@H]2C(=O)N3[C@@H]2SC(C)(C)[C@@H]3C(=O)O)c2ccccc2)C(=O)C1=O | Pseudomonas aeruginosa | MIC | - | - | - | S10 | - | - | 2 µg/mL
CN(C)c1cc(NC(=O)CNC(C)(C)C)c(O)c2c1C[C@H]1C[C@H]3[C@H](N(C)C)C(=O)C(C(N)=O)=C(O)[C@@]3(O)C(=O)C1=C2O | Mycobacterium abscessus | MIC | broth dilution | - | - | X42 | - | - | 0.5 µg/mL
O=C(O)P(=O)(O)O | HIV-1 | inhibition | RT activity | 256 µM | PBL | IIIB | - | 28 d | 99%
Nc1nc2c(ncn2COCCO)c(=O)[nH]1 | Duck hepatitis B virus | EC50 | antigen | - | Primary duck hepatocytes | - | - | - | >50 µg/mL
Nc1ccn(C[C@@H](CO)OCP(=O)(O)O)c(=O)n1 | Human herpesvirus 6 | EC50 | cytopathic effect | - | Human cord blood lymphocytes | - | - | - | 0.22 µM
Nc1ncnc2c1ccn2[C@@H]1O[C@H](CO)[C@@H](O)[C@H]1O | Tacaribe virus | EC50 | cytopathic effect | - | VERO | TRVL 11573 | - | - | 0.03 µg/mL
CN1CCN(c2c(F)cc3c(=O)c(C(=O)O)cn4c3c2SCC4)CC1 | Haemophilus influenzae | MIC90 | - | - | - | 44 strains | - | - | 0.5 µg/mL
Nc1nc(N)c2ncn([C@H]3CO[C@@H](CO)O3)c2n1 | Duck hepatitis B virus | EC50 | - | - | HepG2 | WILD TYPE | - | - | 8.3 µM
N#Cc1cc2[nH]c3ccccc3c2n(-c2ccc([N+](=O)[O-])cc2)c1=O | HIV-1 | EC50 | luciferase | - | HeLa | NNRTI-resistant | RT-V106I Y188L | - | 0.06 µM
CO[C@H]1[C@@H](OC(=O)/C=C/C=C/C=C/C=C/C(=O)O)CC[C@@]2(CO2)[C@@H]1[C@@]1(C)O[C@@H]1CC=C(C)C | Encephalitozoon intestinalis | inhibition | - | 0.00005 µg/mL | RK-13 | - | - | - | 50.3%
Cc1cn([C@H]2O[C@@H](CO)[C@H](O)[C@H]2F)c(=O)[nH]c1=O | Duck hepatitis B virus | EC50 | - | - | LMH | WILD TYPE | - | - | >100 µM
COc1c(N2CCN(C(C)C)CC2)c(F)cc2c(=O)c(C(=O)O)cn(C3CC3)c12 | Mycobacterium smegmatis | MIC99 | - | - | - | KD1163 (GRYA+) | - | - | 0.14 µg/mL
CO/N=C1\CN(c2nc3c(cc2F)c(=O)c(C(=O)O)cn3C2CC2)CC1CN | Streptococcus pneumoniae | MIC | - | - | - | 305313 | - | - | 0.125 µg/mL
COc1cc2[nH]c(C)c(-c3ccccc3C)c(=O)c2cc1Cl | Plasmodium berghei | EC50 | luciferase | - | HepG2 | Pb1052 c11 | - | - | 0.00282 µM
N#CC[C@H](C1CCCC1)n1cc(-c2ncnc3[nH]ccc23)cn1 | SHIV | EC50 | p24 / ELISA | - | PBMC | - | - | - | 0.09 µM
CCOC(=O)Nc1cc2c(c(N)n1)N=C(c1ccccc1)CCN2 | Encephalitozoon intestinalis | inhibition | - | 0.1 µg/mL | RK-13 | - | - | - | 73.2%
CC[C@@]1(O)C(=O)OCc2c1cc1n(c2=O)Cc2cc3ccccc3nc2-1 | Trypanosoma brucei | EC50 | - | - | - | - | - | - | 1.6 µM
COc1c(N2CCNC(C)C2)c(F)cc2c(=O)c(C(=O)O)cn(C3CC3)c12 | Mycobacterium smegmatis | MIC99 | - | - | - | KD1987 (GYRA A91V) | - | - | 0.23 µg/mL
COc1ccc(C(F)(F)F)cc1NCc1cnc2nc(N)nc(N)c2c1C | Encephalitozoon intestinalis | inhibition | - | 0.1 µg/mL | RK-13 | - | - | - | 65.4%
CCN1CCN(c2c(F)cc3c(=O)c(C(=O)O)cn(C4CC4)c3c2F)CC1 | Mycobacterium smegmatis | MIC99 | - | - | - | KD1998 (GYRA D95N) | - | - | 2.6 µg/mL
Nc1ncnc2c1ncn2[C@H]1[C@H](O)[C@H](O)[C@]2(CO)O[C@H]12 | Tacaribe virus | EC50 | cytopathic effect | - | VERO | TRVL 11573 | - | - | >1 µg/mL
C[C@H](O)[C@H]1C(=O)N2C(C(=O)O)=C(S[C@@H]3CN[C@H](C(=O)N(C)C)C3)[C@H](C)[C@H]12 | Pseudomonas aeruginosa | MIC | - | - | - | S10 | - | - | 0.5 µg/mL
CC(C)c1cc2c(c(O)c1O)[C@@]1(C(=O)O)CCCC(C)(C)C1CC2 | Aspergillus tubingensis | MIC | broth dilution | - | - | - | - | - | 200 µg/mL
Nc1ncnc2c1ncn2CCOCP(=O)(O)O | Human herpesvirus 7 | EC50 | syncytia | - | CD4+ T lymphocytes | - | - | - | 8.4 µM
CO[C@@H]1[C@H](OC(=O)NC(=O)CCl)CC[C@]2(CO2)[C@H]1[C@@]1(C)O[C@@H]1CC=C(C)C | Encephalitozoon intestinalis | inhibition | - | 0.1 µg/mL | RK-13 | - | - | - | 78.7%
Nc1ncnc2c1ncn2C[C@@H](CO)OCP(=O)(O)O | Duck hepatitis B virus | EC50 | antigen | - | Primary duck hepatocytes | - | - | - | 0.41 µg/mL
NC(=O)c1ncn([C@@H]2O[C@H](CO)[C@@H](O)[C@H]2O)n1 | Tacaribe virus | EC50 | cytopathic effect | - | VERO | TRVL 11573 | - | - | 1.2 µg/mL
C[C@@H](O)[C@H]1C(=O)N2C(C(=O)O)=C(SCCN=CN)C[C@H]12 | Pseudomonas aeruginosa | MIC | - | - | - | S10 | - | - | 1 µg/mL
CCCCc1cc2c(=O)c(C(=O)OC)c[nH]c2cc1OCCOc1ccccc1 | Plasmodium berghei | EC50 | luciferase | - | HepG2 | Pb1052 c11 | - | - | 0.00008 µM
CCCCCCCCCCCCCCCCCCCCCCOCC(C)(COCCCCCCCCCCCCCCCCCCCCCC)CO[C@]1(C(=O)O)C[C@H](OS(=O)(=O)O)[C@@H](NC(C)=O)[C@H]([C@H](OS(=O)(=O)O)[C@@H](COS(=O)(=O)O)OS(=O)(=O)O)O1 | Respiratory syncytial virus | EC50 | plaque count | - | HEP-2 | Y751 | - | - | 0.57 µM
O=c1ccn([C@@H]2CC[C@H](CO)O2)c(=O)[nH]1 | Duck hepatitis B virus | EC50 | antigen | - | Primary duck hepatocytes | - | - | - | 50 µg/mL
Nc1ncnc2c1ccn2[C@@H]1O[C@H](CO)[C@H](O)[C@H]1O | Tacaribe virus | EC50 | cytopathic effect | - | VERO | TRVL 11573 | - | - | 5 µg/mL
C/C(=C\Cc1ccccc1)CCC[C@H](C)C[C@]1(C)C[C@@]2(C)OC(=O)C[C@H]2OO1 | Toxoplasma gondii | inhibition | - | 10 µM | HFF | RH | - | - | 72%
NC(=O)c1[nH]nc([C@@H]2O[C@H](CO)[C@@H](O)[C@H]2O)c1O | Measles virus | EC50 | plaque count | - | VERO | Sugiyama | - | - | 0.14 µg/mL
COc1cc([C@@H]2c3cc4c(cc3[C@@H](O[C@@H]3O[C@@H]5CO[C@@H](c6cccs6)O[C@H]5[C@H](O)[C@H]3O)[C@H]3COC(=O)[C@H]23)OCO4)cc(OC)c1O | Pneumocystis carinii | inhibition | - | 1 µg/mL | - | - | - | 7 d | 81%
CC[C@H]1O[C@@H](n2cc(F)c(=O)[nH]c2=O)[C@H](O)[C@@H]1O | Measles virus | EC50 | plaque count | - | VERO | Niigata-1 | - | - | >500 µg/mL
C#CC[C@@H](C(=O)N[C@H](/C=C/C(=O)OCC)C[C@@H]1CCNC1=O)n1cccc(NC(=O)c2cc(C)on2)c1=O | Rhinovirus | EC50 | cytopathic effect / XTT | - | H1-HELA | Serotype 81 | - | - | 0.043 µM
CC[C@H](C)[C@H]1NC(=O)[C@@H](NC(=O)[C@@H](CC(C)C)NC)[C@@H](C)OC(=O)[C@H](Cc2ccc(OC)cc2)N(C)C(=O)[C@@H]2CCCN2C(=O)[C@H](CC(C)C)NC(=O)[C@@H](C)C(=O)[C@H](C(C)C)OC(=O)C[C@@H]1O | Dengue virus | inhibition | plaque count | 2.5 µg/mL | LLC-MK2 | TYPE 3 | - | - | 0%
Nc1nccc2c1ncn2[C@@H]1C=C(CO)[C@@H](O)[C@H]1O | Tacaribe virus | EC50 | cytopathic effect | - | VERO | TRVL 11573 | - | - | 1.5 µg/mL
NC(=O)c1ncn([C@@H]2O[C@H](CO)[C@@H](O)[C@H]2O)n1 | Influenza B virus | MIC | - | - | - | B/University of Maryland/1/71 | - | - | 0.05 µg/mL
Nc1nc(=O)n([C@@H]2CS[C@H](CO)O2)cc1F | Duck hepatitis B virus | EC50 | - | - | Huh7 | WILD TYPE | - | - | 9.5 µM
CC1CN(c2cc3c(cc2F)c(=O)c(C(=O)O)cn3C2CC2)CC(C)N1 | Mycobacterium smegmatis | MIC99 | - | - | - | KD1995 (GYRA D95H) | - | - | 3.6 µg/mL
Cc1c(CNc2cccc3c2CCCC3)cnc2nc(N)nc(N)c12 | Encephalitozoon intestinalis | inhibition | - | 0.01 µg/mL | RK-13 | - | - | - | 0%
Nc1nc2c(ncn2CCC(CO)CO)c(=O)[nH]1 | Human herpesvirus 6 | EC50 | cytopathic effect | - | Human T-lymphoblasts | - | - | - | 71 µM
CC1=CC(=O)c2c(O)cccc2C1=O | Aspergillus niger | MIC100 | broth dilution | - | - | CCAM 080002 | - | - | 5 µg/mL
Nc1ncnc2c1ncn2C[C@H](O)CO | Vesicular stomatitis virus | EC50 | cytopathic effect | - | L929 | - | - | - | 70 µg/mL
CO[C@H]1/C=C/O[C@@]2(C)Oc3c(C)c(O)c4c(O)c(c5c(c4c3C2=O)NC2(CCN(CC(C)C)CC2)N=5)=NC(=O)/C(C)=C\C=C\[C@H](C)[C@H](O)[C@@H](C)[C@@H](O)[C@@H](C)[C@H](OC(C)=O)[C@@H]1C | Staphylococcus aureus | MIC50 | - | - | - | 20 strains (methicillin-resistant) | - | - | 0.0313 µg/mL
CCOC(=O)Nc1cc2c(c(N)n1)N=C(c1cccc(OC)c1)CO2 | Encephalitozoon intestinalis | inhibition | - | 0.1 µg/mL | RK-13 | - | - | - | 59.1%
O=c1cnn([C@@H]2O[C@H](CO)[C@@H](O)[C@H]2O)c(=O)[nH]1 | Measles virus | EC50 | plaque count | - | VERO | Niigata-1 | - | - | 0.84 µg/mL
C/C=C1/CN2CCC34c5ccccc5N5C(OC)C67OC(C([C@H]53)[C@H]1C[C@H]24)N1c2ccccc2C2(CCN3C/C(=C/C)[C@@H]6C[C@H]32)[C@@H]17 | Plasmodium falciparum | EC90 | - | - | - | 3D7 | - | - | 3.632 µg/mL
CN1CCN(c2c(F)cc3c(=O)c(C(=O)O)cn4c3c2SCC4CF)CC1 | Haemophilus influenzae | MIC90 | - | - | - | 44 strains | - | - | 0.12 µg/mL
C=C1CN2CCC34c5ccccc5N5C=C([C@H]6CC7C8=C(CCC7C/C6=C/C)c6ccccc6C8)[C@@H](O)[C@@H]([C@H]53)[C@H]1C[C@H]24 | Plasmodium falciparum | EC90 | - | - | - | W2 | - | - | 2.624 µg/mL
Cc1cn([C@H]2C=C[C@@H](CO)O2)c(=O)[nH]c1=O | Duck hepatitis B virus | EC50 | antigen | - | Primary duck hepatocytes | - | - | - | 50 µg/mL
Nc1nc2c(ncn2C[C@]2(CO)C[C@H]2CO)c(=O)[nH]1 | Human herpesvirus 6 | EC50 | cytopathic effect | - | Human T-lymphoblasts | - | - | - | 3.4 µM
NC12CC3CC(CC(C3)C1)C2 | Measles virus | EC50 | plaque count | - | VERO | Niigata-1 | - | - | 85 µg/mL
COc1ccc(O)c(C=O)c1 | Aspergillus terreus | MIC | agar | - | - | UAB698 | - | - | 500 µM
CC1(C)[C@@H](O[C@H]2O[C@H](C(=O)O)[C@@H](O)[C@H](O)[C@H]2O[C@@H]2O[C@H](C(=O)O)[C@@H](O)[C@H](O)[C@H]2O)CC[C@]2(C)[C@H]3C(=O)C=C4[C@@H]5C[C@@](C)(C(=O)O)CC[C@]5(C)CC[C@@]4(C)[C@]3(C)CC[C@@H]12 | Measles virus | EC50 | plaque count | - | VERO | Kitaken-1 | - | - | 680 µg/mL
C/C=C1/CN2CCC34c5ccccc5N5C=C6[C@H]7C[C@@H]8N(CCC89c8ccccc8N(C=C([C@H]1C[C@H]23)[C@H]54)[C@@H]69)C/C7=C/C | Plasmodium falciparum | EC90 | - | - | - | 3D7 | - | - | 7.38 µg/mL
COc1c(O)cc2oc(-c3ccc(O)cc3)cc(=O)c2c1O | Aspergillus tubingensis | MIC | broth dilution | - | - | - | - | - | 300 µg/mL
O=C1C=CN([C@@H]2O[C@H](CO)[C@@H](O)[C@H]2O)C(=O)C1 | Measles virus | EC50 | plaque count | - | VERO | Niigata-1 | - | - | >500 µg/mL

MIC50, MIC90 and the like: level of inhibition, or share of isolates inhibited. Percent inhibition refers to the dose given; in toxicity tests it is the harm to the cells. Conditions beyond the fields shown may differ between rows. Two numbers with a dash give a range or band. ECn is the concentration giving n% inhibition of infection, replication or growth.